Target: SARS-CoV-2 S2 subunit of the spike protein (Sino Biological, 40590-V08B) (SARS-CoV-2, UniProt P0DTC2 686-1213)
Experiment: Octet (BLI), S2 antigen on streptavidin sensor tips, nanobody in solution

Binder | Kd
NCI-CoV-S2A9 (VNAR) VNAR: ARVDQTPRSVTKETGESLTINCVLRDASYALGRTCWYRKKSGSTNEESISKGGRYVETVNSGSKSFSLRINDLTVEDGGTYRCGVSTPWSCDYGPLCFYAACGDGTVVTVN | 2.23 nM
NCI-CoV-CG2G2 (VHH) VHH: AVQLVESGGGSVPPGGSLTLSCTVSDNIFRTYAVGWFRQAPEKRCQWIATLNADESTEYNVAVTGRFTISRDNSGRSVYLQMDNLNSEDTAIYYCASLARKWSCHDSWGRGTQVTVSS | 4.86 nM

Source: US20240417446A1 (US Dept. of Health and Human Services, published 2024)
